A mixed list of measured activities; the numbers were collected in NIAID ChemDB.

Common to all: tests in culture; species: HIV-1

Rows are shuffled and stem from different studies. An empty or dashed field is not shown. ECn: concentration that inhibits the pathogen or its effect by n%.

compound | strain | mutations | endpoint | cells | method | conditions | value
CC(C)[C@H](NC(=O)OCc1ccccc1)C(=O)N[C@@H](Cc1ccccc1)[C@H](O)[C@@H](CO)[C@H](Cc1ccccc1)NC(=O)OC(C)(C)C | IIIB |  | EC50 | MT-4 |  |  | >10 µM
CC(C)CN(C[C@@H](O)[C@H](Cc1ccccc1)NC(=O)[C@H](CC(N)=O)NC(=O)c1ccc2ccccc2n1)C(=O)NC(C)(C)C | NL4-3 | PR-L63P V82T | EC50 | MT-4 | p24 |  | <0.2 µM
COc1ccc(S(=O)(=O)Nc2cc(Cl)ccc2OCC(=O)Nc2ccc(S(N)(=O)=O)cc2C)cc1 | IIIB |  | EC50 | C8166 | syncytia |  | 2.454 µM
Cc1cn([C@H]2C[C@H](N=[N+]=[N-])[C@@H](COP(=O)(OCCSC(=O)C(C)(C)C)OCCSC(=O)C(C)(C)C)O2)c(=O)[nH]c1=O | IIIB |  | EC50 | MT-4 | cytopathic effect / MTT |  | 0.81 µM
O=C(O)c1ccc(SSc2ccc(C(=O)O)cc2)cc1 | RF |  | EC50 | CEM + CEM-SS | cytopathic effect / XTT |  | 123.5 µM
CC(C)[C@H](NC(=O)OCc1ccccc1)C(=O)N[C@@H](Cc1ccccc1)[C@@H](O)[C@H](CO)[C@H](Cc1ccccc1)NC(=O)[C@H](CC(N)=O)NC(=O)OCc1ccccc1 | IIIB |  | EC50 | MT-4 |  |  | >10 µM
CC(C)(C)NC(=O)[C@@H]1C[C@@H]2CCCC[C@@H]2CN1C[C@@H](O)[C@H](Cc1ccccc1)NC(=O)[C@H](CC(N)=O)NC(=O)c1ccc2ccccc2n1 | NL4-3 | PR-M46I V82T I84V | EC95 | MT-4 | p24 |  | 0.05 µM
Cc1ccc(S(=O)(=O)Nc2ccccc2OCC(=O)Nc2ccc(S(N)(=O)=O)cc2)cc1 | IIIB |  | EC50 | C8166 | syncytia |  | 0.61 µM
CN[C@@H]1[C@H](O[C@@H]2OC[C@@H](O)[C@H](O)[C@H]2O)[C@@H](O)[C@H](O[C@H]2c3cc(C)c(C(=O)N[C@H](C)C(=O)O)c(O)c3-c3c(cc4c(c3O)C(=O)c3cc(OC)cc(O)c3C4=O)[C@@H]2O)O[C@@H]1C | ETH2220 R5 CLADE C |  | EC50 | PBMC | p24 |  | 8.7 µg/mL
C[C@H](Sc1nc(N)cc(Cl)n1)c1cc2ccoc2cn1 | DLV-resistant MF (RT-P236L) | RT-P236L | EC50 | MT-4 | p24 |  | <0.008 µM
Cc1cc(C#N)c(C)c(Oc2c(C(F)(F)C(F)F)ncn(Cc3c(C)nc(C)[nH]c3=O)c2=O)c1 |  |  | EC50 | PBMC | GFP | pseudotyped | 0.3253 µM
CNCCSS(=O)(=O)CCNC | ADA |  | EC50 | Macrophage + Monocytes/macrophages | XTT / p24 |  | >100 µM
CC(C)(C)C[C@H](NC(=O)OCc1ccccc1)C(=O)N[C@@H](Cc1ccccc1)[C@@H](CO)[C@H](O)[C@H](Cc1ccccc1)NC(=O)[C@@H](NC(=O)OCc1ccccc1)C(C)(C)C | IIIB |  | EC50 | MT-4 |  |  | 1.6 µM
Nc1nc(N)c2ncn(CC(OCCF)OCP(=O)(O)O)c2n1 |  |  | EC50 | CEM | cytopathic effect |  | 100 µg/mL
Cc1cn([C@H]2C[C@H](N=[N+]=[N-])[C@@H](CO)O2)c(=O)[nH]c1=O | CH119 |  | EC50 | TZM-bl | p24 / ELISA |  | 0.00363 µM
CC(C)=CCN1Cc2cc(Cl)cc3[nH]c(=S)n(c23)C[C@@H]1C | IIIB |  | EC50 | C8166 | cytopathic effect |  | 0.03 µM
CC[C@H](C)[C@H](NC(=O)c1ccccc1SSc1ccccc1C(=O)N[C@H](C(=O)O)[C@@H](C)CC)C(=O)O | IIIB |  | EC50 | H9 | p24 / RT activity |  | 1.2 µM
CC(C)(C)C[C@H](NC(=O)OCc1ccccc1)C(=O)N[C@@H](Cc1ccccc1)[C@H](CO)[C@@H](O)[C@H](Cc1ccccc1)NC(=O)[C@@H](NC(=O)OCc1ccccc1)C(C)(C)C | IIIB |  | EC50 | MT-4 |  |  | >10 µM
Cc1cn([C@H]2C[C@H](N=[N+]=[N-])[C@@H](COP(=O)(OCCC#N)O[C@H]3CC[C@@]4(C)C(=CC[C@@H]5[C@@H]4CC[C@]4(C)C([C@H](C)CCCC(C)C)CC[C@@H]54)C3)O2)c(=O)[nH]c1=O |  |  | EC50 | CEM | cytopathic effect / XTT |  | 1.65 µM
CC(C)=Cc1nc(C)c(Cn2cnc(C(F)(F)C(F)F)c(Oc3cc(C(F)F)cc(C#N)c3C)c2=O)c(=O)[nH]1 |  |  | EC50 | PBMC | GFP | pseudotyped | 0.456 µM
CC(C)[C@H](NC(=O)OCc1ccccc1)C(=O)N[C@@H](Cc1ccccc1)[C@@H](O)[C@H](CO)[C@H](Cc1ccccc1)NC(=O)OC(C)(C)C | IIIB |  | EC50 | MT-4 |  |  | >10 µM
Cc1cn([C@H]2C[C@H](N=[N+]=[N-])[C@@H](COP(=O)(OCCC#N)OC3CCC4(C)C(=CCC5C4CCC4(C)C(C(C)CCCC(C)C)CCC54)C3)O2)c(=O)[nH]c1=O |  |  | EC50 | CEM | cytopathic effect / XTT |  | 5.67 µM
O=S(=O)(SC1=NCCN1)c1ccccc1 | RF |  | EC50 | CEM + CEM-SS | cytopathic effect / XTT |  | 76.5 µM
C1CNCCNCCCN(CCCN2CCCNCCNCCCNCC2)CCNC1 | IIIB |  | EC50 | MT-4 | cytopathic effect / MTS |  | 0.994 µM
O=C(O)c1ccccc1SSc1ccccc1C(=O)O | RF |  | EC50 | CEM + CEM-SS | cytopathic effect / XTT |  | 117.7 µM
Cc1cn([C@H]2C[C@H](N=[N+]=[N-])[C@@H](CO)O2)c(=O)[nH]c1=O | HE |  | EC50 | MT-4 | cytopathic effect / MTS |  | 0.0011 µM
CC(C)[C@H](NC(=O)OCc1ccccc1)C(=O)N[C@@H](Cc1ccccc1)[C@@H](O)[C@H](CO)[C@H](Cc1ccccc1)NC(=O)[C@H](CC(C)(C)C)NC(=O)OCc1ccccc1 | IIIB |  | EC50 | MT-4 |  |  | 2.5 µM
Cc1cc(S(N)(=O)=O)ccc1NC(=O)COc1ccccc1NS(=O)(=O)c1ccc(Cl)cc1 | IIIB |  | EC50 | C8166 | syncytia |  | 0.667 µM
CC(C)(C)[C@H](NC(=O)c1nc2ccccc2[nH]1)C(=O)N[C@@H](Cc1ccccc1)[C@@H](O)[C@H](CO)[C@H](Cc1ccccc1)NC(=O)[C@@H](NC(=O)c1nc2ccccc2[nH]1)C(C)(C)C | IIIB |  | EC50 | MT-4 |  |  | >10 µM
Nc1ccc(S(N)(=O)=O)cc1SSc1cc(S(N)(=O)=O)ccc1N | RF |  | EC50 | CEM + CEM-SS | cytopathic effect / XTT |  | 14.1 µM

The last 3 rows once more:

compound | strain | mutations | endpoint | cells | method | conditions | value
Cc1cc(S(N)(=O)=O)ccc1NC(=O)COc1ccccc1NS(=O)(=O)c1ccc(Cl)cc1 | IIIB |  | EC50 | C8166 | syncytia |  | 0.667 µM
CC(C)(C)[C@H](NC(=O)c1nc2ccccc2[nH]1)C(=O)N[C@@H](Cc1ccccc1)[C@@H](O)[C@H](CO)[C@H](Cc1ccccc1)NC(=O)[C@@H](NC(=O)c1nc2ccccc2[nH]1)C(C)(C)C | IIIB |  | EC50 | MT-4 |  |  | >10 µM
Nc1ccc(S(N)(=O)=O)cc1SSc1cc(S(N)(=O)=O)ccc1N | RF |  | EC50 | CEM + CEM-SS | cytopathic effect / XTT |  | 14.1 µM